Source: PubChem BioAssay AID624483 (NMMLSC, 2012)
This is a selection; strong and weak results do not stand in their true shares. Activity calls are given as the source filed them. Cut-off read from the data, not from the text of the source: active = fluorescence intensity above about 16000; inconclusive = no clear call, values can overlap the other calls; inactive = below that.

Experiment: compound fluorescence in toxin protease inhibitor counterscreen, primary screen, artefact control for toxin protease inhibitor project, biochemical, multiplex microsphere, HTS (AID 624483); note: test concentration not given here
Conditions: compound autofluorescence counterscreen, microsphere flow cytometry; stronger effect = higher value

Structure (SMILES)	fluorescence intensity
Cc1cccc(C)c1OP(C)(N)=O (stereo not drawn)	inactive: 3210
[N-]=[N+]=NC1CCCCC1NC(=O)c1cc([N+](=O)[O-])cc([N+](=O)[O-])c1 (stereo not drawn)	inactive: 6020
Cc1ccc(OP(=O)(Nc2ccc([N+](=O)[O-])cn2)Oc2ccc(C)cc2)cc1	inactive: 3060
CC(C)(C)c1ccc(OP(C)(=O)Nc2ccc(SC(F)(F)F)cc2)cc1 (stereo not drawn)	inactive: 2640
O=[N+]([O-])c1ccc2c(c1)C=Nc1ccccc1O2	inactive: 2130
Cc1ccc2nc3c(c(C)c2c1)CC(C(Cl)Cl)S3 (stereo not drawn)	inactive: 2550
O=[N+]([O-])c1cc([N+](=O)[O-])c(Nc2cccnc2)c([N+](=O)[O-])c1	inactive: 4020
O=[N+]([O-])c1ccc(-c2cc([N+](=O)[O-])c(O)c([N+](=O)[O-])c2)cc1	inactive: 2860
COc1cc(C(=O)NCC2(N3CCOCC3)CCCCC2)ccc1OCC(C)C	inactive: 6560
C[As](=O)(O)c1cccc(C(=O)O)c1	inactive: 3520
O=[As](O)(c1ccc(O)cc1)c1ccccc1O	inactive: 4510
COc1ccc(OP(C)(=O)Nc2cccc(F)c2)cc1 (stereo not drawn)	inactive: 4030
O=[N+]([O-])c1cc([N+](=O)[O-])c(-c2ccn[nH]2)s1	inactive: 2090
COc1ccccc1OP(C)(=O)Nc1cc(Cl)ccc1C (stereo not drawn)	inactive: 5020
CC(C)NC(=O)NP(=O)(Oc1ccccc1)Oc1ccccc1	inactive: 3540
O=C(OC1CN2CCC1CC2)c1cccc2[nH]cnc12 (stereo not drawn)	inactive: 3360
CCN(CC)C(=S)SC(NC=O)C(Cl)(Cl)Cl (stereo not drawn)	inactive: 5580
Cc1cc(C)cc(OP(C)(N)=O)c1 (stereo not drawn)	inactive: 4610
ClCCSc1nnc(-c2cccnc2)o1	inactive: 8080
CCOC(=O)c1ccc(NP(C)(=O)Oc2ccccc2)cc1 (stereo not drawn)	inactive: 2620
COC(=O)C1(C)COP(=O)(N2CCCCCC2)OC1 (stereo not drawn)	inactive: 4030
CC(C)c1ccc(OP(=O)(Nc2ccccn2)Oc2ccccc2F)cc1 (stereo not drawn)	inactive: 4680
Cc1ccc(NP(C)(=O)Oc2ccccc2)c(C)c1 (stereo not drawn)	inactive: 2980
COc1ccccc1OP(C)(=O)Nc1ccc(C)cc1 (stereo not drawn)	inactive: 2340

Structure (SMILES)	fluorescence intensity
O=P1(N(CCCl)CCCl)OCCCN1CCCl (stereo not drawn)	inactive: 4090
O=P1(N(CCCl)CCCl)Nc2ccccc2N1	inactive: 2830
COc1cc(I)ccc1[As](=O)(O)O	inactive: 4060
COc1ccc2nc(NP(=O)(c3ccccc3)c3ccccc3)sc2c1	inactive: 4360
Cc1c2c(nc3ccccc13)SC(C(Cl)Cl)C2 (stereo not drawn)	inactive: 2610
CCN(CC)CCCOC(=O)C(O)(c1ccccc1)c1ccccc1	inactive: 3230
Cc1cc(=O)[nH]c(N[N+](=O)[O-])n1	inactive: 2080
O=C(OC1CN2CCC1CC2)C12CC3CC(CC(C3)C1)C2 (stereo not drawn)	inactive: 3840
O=[N+]([O-])c1cc(Oc2ccc([N+](=O)[O-])cc2C(F)(F)F)cc([N+](=O)[O-])c1	inactive: 3800
COc1ccccc1-c1ccccn1.O=[N+]([O-])c1cc([N+](=O)[O-])c(O)c([N+](=O)[O-])c1	inactive: 5920
COc1ccc(N/C(=N/P(=O)(N2CCOCC2)N2CCOCC2)N2CCOCC2)cc1	inactive: 3850
O=C(Nc1ccncc1[N+](=O)[O-])c1ccc([N+](=O)[O-])cc1[N+](=O)[O-]	inactive: 4020
Cc1cc(C)cc(OP(C)(=O)Nc2ccc(SC(F)(F)F)cc2)c1 (stereo not drawn)	inactive: 2080
O=C(COc1ccccc1)OC1CN2CCC1CC2 (stereo not drawn)	inactive: 4550
CP(=O)(NC(=O)Nc1ccccc1)Oc1ccccc1 (stereo not drawn)	inactive: 6990
CCc1ccc(OP(C)(=O)N2CCN(c3ccc([N+](=O)[O-])cc3)CC2)cc1 (stereo not drawn)	inactive: 4060
CP(=O)(Oc1ccccc1)OC(c1ccccc1)C(F)(F)F (stereo not drawn)	inactive: 4340
COC(=O)C1(C)COP(=O)(N2CCCC2)OC1 (stereo not drawn)	inactive: 6670
COP1(=S)c2c(C)nn(CCC#N)c2N=C(c2ccc(F)cc2)N1C (stereo not drawn)	inactive: 11000
Cc1cccc(C)c1OP(C)(=O)Nc1ccc(SC(F)(F)F)cc1 (stereo not drawn)	inactive: 2390
Cc1ccc(Nc2c([N+](=O)[O-])cc([N+](=O)[O-])cc2[N+](=O)[O-])cc1	inactive: 3670
CP(=O)(Nc1ccc(SC(F)(F)F)cc1)Oc1ccc(Cl)cc1 (stereo not drawn)	inactive: 6030
CCC(C)N(CC(C)C)C(=S)SC(NC(C)=O)C(Cl)(Cl)Cl (stereo not drawn)	inactive: 4510
CP(=O)(Nc1ccccn1)Oc1ccc(Cl)cc1 (stereo not drawn)	inactive: 4130

Structure (SMILES)	fluorescence intensity
CSc1ccc(Nc2c([N+](=O)[O-])cc([N+](=O)[O-])cc2[N+](=O)[O-])cc1	inactive: 3550
O=C(OC1CN2CCC1CC2)c1cccc([N+](=O)[O-])c1 (stereo not drawn)	inactive: 3880
CCOP(C)(=S)SCC(=O)NC(C)C(=O)O (stereo not drawn)	inactive: 2830
CCOC(=O)c1ccc(NC(=O)C(C)(CCl)SC)cc1 (stereo not drawn)	inactive: 3580
CCOC(=O)c1ccc(NP(C)(=O)Oc2ccc(OC)cc2)cc1 (stereo not drawn)	inactive: 9010
COP(=O)(OC)N1CC1c1ccccc1 (stereo not drawn)	inactive: 3670
Cc1cc(SC(NC(=O)c2ccccc2)C(Cl)(Cl)Cl)nc(C(C)C)n1 (stereo not drawn)	inactive: 2080
CCCCOc1ccc(C(=O)NCC2(N3CCCCC3)CCCCC2)cc1OC	inactive: 8390
O=C(O)C(=O)c1ccc(N(CCCl)CCCl)cc1.c1ccc(Nc2ccccc2)cc1	inactive: 3450
CCOC(=O)Nc1ccc([As](=O)(O)O)c(O)c1	inactive: 4060
CC1CCNP(=O)(N(CCCl)CCCl)O1 (stereo not drawn)	inactive: 4080
COc1ccccc1OP(C)(=O)Nc1ccccc1 (stereo not drawn)	inactive: 4660
O=P(Nc1ccccn1)(c1cccc2ccccc12)c1cccc2ccccc12	inactive: 4610
Cc1cc(SC(NC=O)C(Cl)(Cl)Cl)ncn1 (stereo not drawn)	inactive: 2000
O=[N+]([O-])c1ccc(Nc2ccc(Oc3ccc([N+](=O)[O-])cc3[N+](=O)[O-])cc2)c([N+](=O)[O-])c1	inactive: 4860
CP(=O)(Nc1ccccc1Br)Oc1ccccc1 (stereo not drawn)	inactive: 7760
CP(=S)(Nn1cnnc1)Oc1ccccc1 (stereo not drawn)	inactive: 2360
CCOC(=O)Nc1cccc([As](=O)(O)O)c1	inactive: 2980
CCOC(=O)C(CC)C1=NC(C)(C)Cc2ccccc21.O=[N+]([O-])c1cc([N+](=O)[O-])c(O)c([N+](=O)[O-])c1 (stereo not drawn)	inactive: 4380
CN(C)C1(CNC(=O)c2ccc(S(C)(=O)=O)cc2)CCCCC1	inactive: 3240
CC1=C2N=C(C=C3N=C(C(C)=C4[N-][C@@](C)([C@@H]5N=C1[C@](C)(CCC(=O)NC[C@@H](C)OP(=O)([O-])O[C@H]1[C@@H](O)[C@@H](n6cnc7cc(C)c(C)cc76)O[C@@H]1CO)[C@H]5CC(N)=O)[C@@](C)(CC(N)=O)[C@@H]4CCC(N)=O)[C@@](C)(CC(N)=O)[C@@H]3CCC(N)=O)C(C)(C)[C@@H]2CCC(N)=O.[C-]#N.[Co+3]	inactive: 5570
O=[N+]([O-])c1cc([N+](=O)[O-])c(Nc2nnnn2CCO)c([N+](=O)[O-])c1	inactive: 4240
CCCC1OP(=O)(Nc2ccccc2)OCC1CC (stereo not drawn)	inactive: 4260
O=C(/C=C/c1ccccc1)OC1CN2CCC1CC2 (stereo not drawn)	inactive: 5620

Structure (SMILES)	fluorescence intensity
CC1CCC(C(C)C)C(OP(=O)(Nc2ccccn2)c2ccccc2)C1 (stereo not drawn)	inactive: 3460
Cc1ccc(C(=O)OC2CN3CCC2CC3)cc1 (stereo not drawn)	inactive: 3050
Cc1nn(-c2ccccc2)c2c1P(=O)(N1CCOCC1)N(C)C(c1ccccc1)=N2 (stereo not drawn)	inactive: 4430
COc1cc(C2NCCC3(OCCO3)C2(C)C)cc(OC)c1OC.O=[N+]([O-])c1cc([N+](=O)[O-])c(O)c([N+](=O)[O-])c1 (stereo not drawn)	inactive: 2480
CCCOc1ccc(NP(C)(=O)Oc2ccc(Cl)cc2)cc1 (stereo not drawn)	inactive: 5420
CP(=O)(Nc1ccc(SC(F)(F)F)cc1)Oc1ccccc1 (stereo not drawn)	inactive: 2530
Nc1cccc([As](=O)(O)c2ccccc2)c1	inactive: 4540
COc1ccc(-c2ccccn2)cc1.O=[N+]([O-])c1cc([N+](=O)[O-])c(O)c([N+](=O)[O-])c1	inactive: 6340
O=[As](O)(c1cccs1)c1cccs1	inactive: 3280
Cc1ccc(OCC(=O)OC2CN3CCC2CC3)cc1 (stereo not drawn)	inactive: 4360
NS(=O)(=O)c1cccc(NC(=O)COC(=O)C(O)(c2ccccc2)c2ccccc2)c1	inactive: 4000
COc1ccccc1OP(C)(=O)Nc1c(C)cccc1C (stereo not drawn)	inactive: 4200
CN1CCCCC1COC(=O)C1(O)c2ccccc2CCc2ccccc21 (stereo not drawn)	inactive: 2050
O=P1(Nc2ncccn2)COc2ccccc2OC1	inactive: 9270
CC(C)(C)C(=O)NC(Sc1ncccn1)C(Cl)(Cl)Cl (stereo not drawn)	inactive: 4210
O=P1(N(CCCl)CCCl)NCCC(C(F)(F)F)O1 (stereo not drawn)	inactive: 3870
CN(Cc1cccnc1)C(=O)COc1ccc(Cl)c(Cl)c1.O=[N+]([O-])c1cc([N+](=O)[O-])c(O)c([N+](=O)[O-])c1	inactive: 4310
O=[N+]([O-])c1cc([N+](=O)[O-])c(-n2nnc3ccccc32)c([N+](=O)[O-])c1	inactive: 3490
CCOP(=O)(NC(=NC(C)c1ccccc1)NC(C)c1ccccc1)OCC (stereo not drawn)	inactive: 3360
Nc1ccc(CCCCOc2ccccc2)cc1.O=[N+]([O-])c1cc([N+](=O)[O-])c(O)c([N+](=O)[O-])c1	inactive: 6150
O=P1(Nc2ccccn2)COc2ccccc2OC1	inactive: 3460
